Results of unrelated studies side by side (data: NIAID ChemDB).

Common to all: whole-cell or culture tests; species: Mycobacterium tuberculosis

Lines come from different laboratories, so protocols vary.

SMILES,mutations,read-out,read by,conditions,strain or isolate,dose,cells,value
Cn1ccc(-c2noc(C3=CC4(CCN(CC5CCCO5)CC4)c4ccccc43)n2)n1,,MIC,resazurin,,H37Rv,,,>100 µM
CCN(CC)C1=NS(=O)(=O)c2ccccc2C(SC)=C1C,,inhibition,BACTEC,,H37Rv,12.5 µg/mL,,10%
Cc1ccc2nc(SCc3ccccc3Cl)[nH]c2c1,,MIC,,,MY 332/88,,,32 µM
CNC(=S)c1ccc(SC)cc1,,MIC,,,H37Rv,,,>405 µM
COc1ccc(-c2cc(-c3ccccc3)nc3c2CC(=O)Nc2ccccc2-3)cc1OC,,MIC bound,resazurin,,H37Rv,,,>6.25 µg/mL
Cc1ccc2c(c1)[n+](=O)c(C(=O)Nc1ccccc1C)c(C)n2[O-],,inhibition,,,H37Rv,6.25 µg/mL,,70%
COc1ccc(C(=S)Nc2ccc(Cl)cc2)cc1,,MIC,,,H37Rv,,,2000 µM
NC(=S)N/N=C1\C(=O)NC(=O)C1c1ccccc1,,inhibition,BACTEC,,H37Rv,12.5 µg/mL,,-3%
CCCSc1ccc(C(=S)NCC)cc1,,MIC,,,H37Rv,,,334 µM
CCCCCCCCCCCCCCCCn1c(=O)c2c(C)n(CCCC)c(C)c2c(=O)n1C,,inhibition,,,H37Rv,12.5 µg/mL,,20%
CCCCCCCCCCCCN1C(=O)C(CC(=O)O)SC12CCNCC2,,EC50,resazurin,,H37Ra,,,>25 µg/mL
CCCC(C)Sc1ccc(/C=C/C(N)=S)cc1,,MIC,,,H37Rv,,,180 µM
Oc1cc(CCCc2ccccc2)ccc1Oc1ccc(Cl)cc1Cl,,MIC,,,Clinical isolate 12081,,,100 µM
C[C@]1(COc2ccc(N3CCN(C/C=C/c4ccccc4C(F)(F)F)CC3)cc2)Cn2cc([N+](=O)[O-])nc2O1,,MIC,,,H37Rv,,,0.012 µg/mL
C[C@H]1COc2c(N3CCN(C)CC3)c(F)cc3c(=O)c(C(=O)O)cn1c23,,MIC,,,Erdman,,,2 µg/mL
CSC(=S)NNC(C)c1nccc2ccccc12,,MIC,,,ETA-R,,,12.8 µg/mL
C1=C(c2nc(-c3cccnc3)no2)c2ccccc2C12CCN(CC1CCCO1)CC2,Rifampicin-resistant,MIC,resazurin,,19000,,,1.56 µM
S=C(Nc1ccccc1)c1ccc(Cl)cc1,,MIC,,,H37Rv,,,125 µM
CC(C)=CCC(OC(=O)CC(C)C)C1=CC(=O)c2c(O)ccc(O)c2C1=O,,MIC,,,CS-R,,,>12.5 µg/mL
COc1ccc(-c2noc(C3=CC4(CCN(CC5CCCO5)CC4)c4ccccc43)n2)cc1,,MBC,colony count / visual reading,,H37Rv,,,0.8 µM
O=S(=O)(N=C1C(Cl)=C(Cl)C(=NS(=O)(=O)c2ccccc2)C(Cl)=C1Cl)c1ccccc1,,MIC bound,BACTEC,,H37Rv,,,>12.5 µg/mL
COCCN(C1CCN(CC2C(c3ccccc3)=Nc3c(C(C)C)cccc32)C1)S(C)(=O)=O,,MIC,,,,,,12.5 µM
CCC(C)Sc1ccc(C(=S)NC)cc1,,MIC,,,H37Rv,,,334 µM
CCC1(Cc2ccc(OC)c(OC)c2)C=[N+]([O-])OC(OC2CCCCC2c2ccccc2)C1OC(C)=O,,MIC bound,resazurin,,H37Rv,,,>6.25 µg/mL
O=S(=O)(NC1CCN(Cc2cccnc2)CC1)c1ccc(-n2cccn2)cc1,,MIC,,,,,,100 µM
CCCCCCCCCCCCN1C(=O)C(CC(=O)O)SC12CCN(C(=O)C(N)CC(=O)O)CC2,,inhibition,resazurin,,H37Ra,25 µg/mL,,2%
Cc1cn(CC2C=CC(CS[As](C)C)O2)c(=O)[nH]c1=O,,MIC,BACTEC,,H37Rv,,VERO,12.5 µg/mL
Cc1c2c(OCC(O)CN3CCc4ccccc4C3)nn(C)c(=O)c2c(C)n1-c1ccccc1,,inhibition,,,H37Rv,12.5 µg/mL,,6%
O=C1Cc2ccccc2C(O)=C1c1cnccn1,,MIC bound,BACTEC,,H37Rv,,,>12.5 µg/mL
Cc1c(C(=O)NC(C)(C)C)[n+](=O)c2cc(Cl)c(Cl)cc2n1[O-],,inhibition,,,H37Rv,6.25 µg/mL,VERO,100%
O=C1CSC2(CCCCC2)N1Cc1ccccc1,,inhibition,resazurin,,H37Ra,25 µg/mL,,8%
CCCCn1c(C)c2c(=O)n(C)n(Cc3ccc(Cl)cc3)c(=O)c2c1C,,EC50,,,H37Rv,,,<12.5 µg/mL
Cc1ccc2nc(SCc3cccc([N+](=O)[O-])c3)[nH]c2c1,,MIC,,,MY 332/88,,,62 µM
CCC(C)Sc1ccc(/C=C/C(N)=S)cc1,,MIC,,,H37Rv,,,80 µM
COc1cccc(CSc2nc3ccc(C)cc3[nH]2)c1,,MIC,,,MY 332/88,,,62 µM
CCCCCCCCCCCCN1C(=O)C(CC(=O)O)SC12CCN(OC(=O)C(C)(C)C)CC2,,EC50,resazurin,,H37Ra,,,<25 µg/mL
CO[C@H]1/C=C/O[C@@]2(C)Oc3c(C)c(O)c4c(O)c(c(/C=N/N5CCN(C6CCCC6)CC5)c(O)c4c3C2=O)NC(=O)/C(C)=C\C=C\[C@H](C)[C@H](O)[C@@H](C)[C@@H](O)[C@@H](C)[C@H](O)[C@@H]1C,,MIC,,,H37Rv,,,0.06 µg/mL
CO[C@H]1/C=C/O[C@@]2(C)Oc3c(C)c(O)c4c(O)c(c(/C=N/N5CCN(C)CC5)c(O)c4c3C2=O)NC(=O)/C(C)=C\C=C\[C@H](C)[C@H](O)[C@@H](C)[C@@H](O)[C@@H](C)[C@H](OC(C)=O)[C@@H]1C,,MIC,,,InhA OE,,,0.01 µM
Cc1c(C(=O)N2CCN(Cc3ccccc3)CC2)[n+](=O)c2ccccc2n1[O-],,inhibition,,,H37Rv,6.25 µg/mL,,0%
CO[C@H]1/C=C/O[C@@]2(C)Oc3c(C)c(O)c4c(O)c(c5c(c4c3C2=O)NC2(CCN(CC(C)C)CC2)N=5)=NC(=O)/C(C)=C\C=C\[C@H](C)[C@H](O)[C@@H](C)[C@@H](O)[C@@H](C)[C@H](OC(C)=O)[C@@H]1C,,MIC,,,Erdman,,,0.015 µg/mL
Cc1ccc(NC(=O)C(Cl)Cl)cc1Cl,,MIC,BACTEC,,H37Rv,,,12.5 µg/mL
c1ccc(Nc2cc(Nc3ccccc3)ncn2)cc1,,MIC90,resazurin,,H37Rv,,,500 µM
Cc1c(C(=O)N2CCN(c3ccc(Cl)cc3)CC2)[n+](=O)c2ccccc2n1[O-],,inhibition,,,H37Rv,6.25 µg/mL,,0%
CCCCCCCCCCCCN1C(=O)C(CC(=O)O)SC12CCCCCCC2,,EC50,resazurin,,H37Ra,,,<25 µg/mL
CCCCn1c(C)c2c(OCCO)nn(C)c(=O)c2c1C,,inhibition,,,H37Rv,12.5 µg/mL,,26%
S=C(Nc1ccc(Br)cc1)c1cccc(Br)c1,,MIC,,,H37Rv,,,31 µM
Cc1ccc2nc(SCc3ccc(Cl)c(Cl)c3)[nH]c2c1,,MIC,,,MY 332/88,,,32 µM
Oc1cc(CC2CCCCC2)ccc1Oc1ccc(Cl)cc1Cl,,MIC,,,Clinical isolate 5071,,,13 µM
Cc1ccc2nc(SCc3cccc(F)c3)[nH]c2c1,,MIC,,,MY 332/88,,,62 µM
CCOC(=O)NC(=O)CNc1ncc([N+](=O)[O-])s1,,inhibition,BACTEC,,H37Rv,12.5 µg/mL,,7%
COc1ccc(N2CCN(C(=O)c3c(C)n([O-])c4cc(Cl)c(Cl)cc4[n+]3=O)CC2)cc1,,MIC,,,H37Rv,,,>6.25 µg/mL
C[C@]1(COc2ccc(C3CCN(Cc4csc(-c5ccc(C(F)(F)F)cc5)n4)CC3)cc2)Cn2cc([N+](=O)[O-])nc2O1,,MIC,,,H37Rv,,,0.006 µg/mL
CC(=O)OCC1OC(N2C(c3ccccc3)=CC(c3cccs3)C(C#N)=C2S)C(OC(C)=O)C(OC(C)=O)C1OC(C)=O,,MIC bound,BACTEC,,H37Rv,,,>12.5 µg/mL
CC1COc2c(N3CCN(C)CC3)c(F)cc3c(=O)c(C(=O)O)cn1c23,Rifampicin-resistant,MIC,resazurin,,19000,,,0.14 µM
NC(=O)c1cnccn1,,MIC,,,Erdman,,,32 µg/mL
COCCN(C1CCN(CC2C(c3ccccc3)=Nc3c(C)ccc(F)c32)C1)S(C)(=O)=O,,MIC,,,,,,25 µM
Cc1ccc2[nH]c(=S)[nH]c2c1,,MIC,,,MY 332/88,,,500 µM
CCOc1ccccc1NC(=O)CC(=O)N1N=C(C)C(N=Nc2ccccc2C(=O)O)C1=O,,MIC bound,BACTEC,,H37Rv,,,>12.8 µg/mL
Cc1c(C(=O)N2CCN(c3ccc([N+](=O)[O-])cc3)CC2)[n+](=O)c2cc(Cl)c(Cl)cc2n1[O-],,MIC,,,H37Rv,,,>6.25 µg/mL
CCCCCCCCCCCCN1C(=O)C(CC(=O)O)SC12CCCC2,,EC50,resazurin,,H37Ra,,,<25 µg/mL
S=C(Nc1ccc(Cl)cc1)c1ccc(Cl)cc1,,MIC,,,H37Rv,,,125 µM
CSC1=Nc2cc3c(cc2C(=O)N2CC(O)CC12)OCO3,,MIC bound,BACTEC,,H37Rv,,,>12.5 µg/mL
CCNC(=S)c1ccc(SC(C)CC)cc1,,MIC,,,H37Rv,,,315 µM
CN(c1cccc(Cl)c1)C1CCN(c2ccc(OC[C@@]3(C)Cn4cc([N+](=O)[O-])nc4O3)cc2)CC1,,MIC,,,H37Rv,,,0.024 µg/mL
COC(=O)c1nn(-c2ccccc2)c2c1C(=O)c1ccccc1C2=O,,MIC bound,resazurin,,H37Rv,,,<6.25 µg/mL
CCCCCCCCCCCCN1C(=O)C(CC(=O)O)SC12CCN(C(=O)C(N)Cc1ccccc1)CC2,,inhibition,resazurin,,H37Ra,25 µg/mL,,97%
COc1ccc2c(c1)[n+](=O)c(C(=O)N1CCN(c3ccc([N+](=O)[O-])cc3)CC1)c(C)n2[O-],,MIC,,,H37Rv,,,>6.25 µg/mL
Cc1ccc(CSc2nc3ccc(C)cc3[nH]2)cc1,,MIC,,,MY 332/88,,,>32 µM
COC(=O)C1[C@@H](OC(=O)CC(CCCCCCCCCCC(C)C)OC(=O)CC(C)CC(=O)OC2OC(C)C(OC)C(OC)C2OC)CN(C)C([C@@H](OC2O[C@H](CN)[C@@H](O)[C@H]2O)C2OC(n3ccc(=O)[nH]c3=O)[C@H](O)[C@@H]2O)C(=O)N1C,,MIC,,,Kurono,,,6.25 µg/mL
Cc1c2nc3ccccc3sc-2cc(=O)c1C,,MIC bound,BACTEC,,H37Rv,,,>12.5 µg/mL
C[C@]1(COc2ccc(N3CCC(Nc4ccc(C(F)(F)F)cc4Cl)CC3)cc2)Cn2cc([N+](=O)[O-])nc2O1,,MIC,,,H37Rv,,,0.012 µg/mL
COc1ccc(NC(=S)c2ccccc2)cc1,,MIC,,,H37Rv,,,125 µM
C=CCSc1ccc(C(=S)NCC)cc1,,MIC,,,H37Rv,,,252 µM
CCOC(=O)C(Cc1ccccc1)NP(=O)(CCC(=O)N1C[C@H](OCC(O)P(=O)(NC(Cc2ccccc2)C(=O)OCC)NC(Cc2ccccc2)C(=O)OCC)[C@H](n2cnc3c(=O)[nH]c(N)nc32)C1)NC(Cc1ccccc1)C(=O)OCC,,MIC90,resazurin / low oxygen / fluorescence,,H37Rv,,,29 µM
COc1ccc(-c2noc(C3=CC4(CCN(CC5CCCO5)CC4)c4ccccc43)n2)cn1,,MIC,resazurin,,H37Rv,,,0.4 µM
Cc1cc2c(cc1C)[n+](=O)c(C(=O)N1CCN(c3ccc(Cl)cc3)CC1)c(C)n2[O-],,inhibition,,,H37Rv,6.25 µg/mL,,0%
Cc1c[nH]c(=O)[nH]c1=O,,MIC bound,BACTEC,,H37Rv,,,>12.5 µg/mL
Cc1ccc2nc(SCc3ccc(C(N)=S)cc3)[nH]c2c1,,MIC,,,MY 332/88,,,8 µM
CC(NC(=O)C1CC(O)CN1C(=O)CN)C(=O)O,,MIC bound,BACTEC,,H37Rv,,,>12.5 µg/mL
CNC(=S)c1ccc(SC(C)C)cc1,,MIC,,,H37Rv,,,>355 µM
O=c1c2ccccc2sc2c1c(N(CCCl)CCCl)cc1ccccc12,,inhibition,BACTEC,,H37Rv,12.5 µg/mL,,27%
Cc1c(C(=O)Nc2ccccc2)[n+](=O)c2ccccc2n1[O-],,EC50,,inside macrophages,H37Rv,,,<2.79 µg/mL
CCCCCCCCN1C(=O)CS(=O)C12CCCCC2,,inhibition,resazurin,,H37Ra,25 µg/mL,,5%
OCC1OC2C(NC(=S)N2c2ccccc2)C(O)C1O,,inhibition,resazurin,,H37Rv,6.25 µg/mL,,-3%
O=S(=O)(NC1CCN(Cc2ccncc2)CC1)c1ccc(-n2cccn2)cc1,,MIC,,,,,,0.8–3.1 µM

The last 8 rows once more:

SMILES | mutations | read-out | read by | conditions | strain or isolate | dose | cells | value
Cc1ccc2nc(SCc3ccc(C(N)=S)cc3)[nH]c2c1 |  | MIC |  |  | MY 332/88 |  |  | 8 µM
CC(NC(=O)C1CC(O)CN1C(=O)CN)C(=O)O |  | MIC bound | BACTEC |  | H37Rv |  |  | >12.5 µg/mL
CNC(=S)c1ccc(SC(C)C)cc1 |  | MIC |  |  | H37Rv |  |  | >355 µM
O=c1c2ccccc2sc2c1c(N(CCCl)CCCl)cc1ccccc12 |  | inhibition | BACTEC |  | H37Rv | 12.5 µg/mL |  | 27%
Cc1c(C(=O)Nc2ccccc2)[n+](=O)c2ccccc2n1[O-] |  | EC50 |  | inside macrophages | H37Rv |  |  | <2.79 µg/mL
CCCCCCCCN1C(=O)CS(=O)C12CCCCC2 |  | inhibition | resazurin |  | H37Ra | 25 µg/mL |  | 5%
OCC1OC2C(NC(=S)N2c2ccccc2)C(O)C1O |  | inhibition | resazurin |  | H37Rv | 6.25 µg/mL |  | -3%
O=S(=O)(NC1CCN(Cc2ccncc2)CC1)c1ccc(-n2cccn2)cc1 |  | MIC |  |  |  |  |  | 0.8–3.1 µM

ECn: concentration that inhibits the pathogen or its effect by n%. a–b is a range or a potency band. Blank or dashed fields: not listed here. MIC bound: limit read from a one-dose screen. A number after MIC or MFC names an inhibition level or a share of isolates. Percent inhibition refers to the dose given; in toxicity tests it is the harm to the cells.